Measurements reported in PubChem BioAssay AID504761 (Drosophila RNAi Screening Center, 2011)

Test: 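Insect host genes that dengue virus relies on to spread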 (primary screen)
Cell system: D.Mel-2 cells from Drosophila
Reagent: long dsRNA against Drosophila genes
Treatment: infection with dengue virus type 2; dose and infection time not stated
Measurement: 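Cells stained for dengue envelope protein and imaged; percent of infected cells per well on duplicate plates, ranked by infection, with stained nuclei counted for cell number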
Scale: infection score: higher = more virus-infected cells; cell count: higher = more cells in the well
Hit rule: 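Very low infection ranking in both replicate wells (chance probability at most 0.065), then a retest showing infection dropped 1.5-fold or more at p below 0.05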
Meaning of the calls: active = confirmed: knock-down lowers infection; inactive = not picked or not confirmed
The screen tested about 22,000 reagents; below is a random part of those that have a named target and a result. Over the whole deposit, 116 (0.52%) were called active. 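Calls depend on retest data that are not deposited; infection was ranked per plate without normalising between plates; the unit of the infection score is not given.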 The raw values are shown without normalisation. Unmarked entries are inactive. Names joined by + are all predicted targets of the reagent. Reagent sequences are not shown. Not stated in the record: the amount of reagent, the time to read-out.

After knock-down of Acbp6 [DRSC10217] the results were infection score, replicate 1 = 3.85; infection score, replicate 2 = 1.49; cell count, replicate 1 = 6084; cell count, replicate 2 = 5852.
Against fz [DRSC11348] the deposit lists infection score, replicate 1 = 1.83; infection score, replicate 2 = 1.44; cell count, replicate 1 = 5841; cell count, replicate 2 = 6106.
CG7702 [DRSC16293] showed infection score, replicate 1 = 2.47; infection score, replicate 2 = 3.1; cell count, replicate 1 = 6200; cell count, replicate 2 = 6394.
After knock-down of CG7702 [DRSC27592] the results were infection score, replicate 1 = 26.1; infection score, replicate 2 = 4.39; cell count, replicate 1 = 5743; cell count, replicate 2 = 6180.
With knock-down of Cyp6a9 [DRSC07385] the results were infection score, replicate 1 = 19; infection score, replicate 2 = 12; cell count, replicate 1 = 5462; cell count, replicate 2 = 5593.
Knock-down of RpL17 [DRSC18293] gave: infection score, replicate 1 = 2.24; infection score, replicate 2 = 3.29; cell count, replicate 1 = 2189; cell count, replicate 2 = 2098.
RpL17 [DRSC29971] gave infection score, replicate 1 = 14.5; infection score, replicate 2 = 17.1; cell count, replicate 1 = 4373; cell count, replicate 2 = 4889.
After knock-down of twin [DRSC15259], the record shows infection score, replicate 1 = 5.98; infection score, replicate 2 = 2.58; cell count, replicate 1 = 6123; cell count, replicate 2 = 6517.
twin [DRSC15831] showed infection score, replicate 1 = 5.65; infection score, replicate 2 = 2.69; cell count, replicate 1 = 6359; cell count, replicate 2 = 6666.
Silencing of twin [DRSC21363] came out at: infection score, replicate 1 = 1.71; infection score, replicate 2 = 2.06; cell count, replicate 1 = 5739; cell count, replicate 2 = 6109.
twin [DRSC29620] gave infection score, replicate 1 = 13.4; infection score, replicate 2 = 19.5; cell count, replicate 1 = 1601; cell count, replicate 2 = 3535.

4 entries from above, arranged by “cell count, replicate 2”, ascending:
Cyp6a9 [DRSC07385] | infection score, replicate 1: 19; infection score, replicate 2: 12; cell count, replicate 1: 5462; cell count, replicate 2: 5593
fz [DRSC11348] | infection score, replicate 1: 1.83; infection score, replicate 2: 1.44; cell count, replicate 1: 5841; cell count, replicate 2: 6106
CG7702 [DRSC27592] | infection score, replicate 1: 26.1; infection score, replicate 2: 4.39; cell count, replicate 1: 5743; cell count, replicate 2: 6180
CG7702 [DRSC16293] | infection score, replicate 1: 2.47; infection score, replicate 2: 3.1; cell count, replicate 1: 6200; cell count, replicate 2: 6394

Further reagents:
For LeuRS-m [DRSC08595] the deposit lists infection score, replicate 1 = 11.6; infection score, replicate 2 = 9.31; cell count, replicate 1 = 4554; cell count, replicate 2 = 5091.
LeuRS-m [DRSC28690] gave infection score, replicate 1 = 15.6; infection score, replicate 2 = 13.8; cell count, replicate 1 = 5396; cell count, replicate 2 = 4564.
After knock-down of CG13723 [DRSC10052], the screen gave infection score, replicate 1 = 1.3; infection score, replicate 2 = 1.62; cell count, replicate 1 = 6389; cell count, replicate 2 = 6340.
CG17821 [DRSC06696] showed infection score, replicate 1 = 3.17; infection score, replicate 2 = 1.11; cell count, replicate 1 = 6443; cell count, replicate 2 = 6241.
Depletion of Dro [DRSC07406] came out at: infection score, replicate 1 = 14; infection score, replicate 2 = 12.3; cell count, replicate 1 = 6463; cell count, replicate 2 = 3414.
PheRS-m [DRSC05915] scored infection score, replicate 1 = 32.6; infection score, replicate 2 = 35.5; cell count, replicate 1 = 4909; cell count, replicate 2 = 5536.
After knock-down of Pits [DRSC19385], the screen gave infection score, replicate 1 = 2.12; infection score, replicate 2 = 2.24; cell count, replicate 1 = 6370; cell count, replicate 2 = 6771.
Pits [DRSC25013] gave infection score, replicate 1 = 2.99; infection score, replicate 2 = 2.21; cell count, replicate 1 = 6285; cell count, replicate 2 = 6117.
For CG5302 (retired record) [DRSC15764], the entry reads infection score, replicate 1 = 3.94; infection score, replicate 2 = 7.51; cell count, replicate 1 = 6496; cell count, replicate 2 = 6541.
Against CG5302 (retired record) [DRSC15765], the values are infection score, replicate 1 = 9.46; infection score, replicate 2 = 12.7; cell count, replicate 1 = 6165; cell count, replicate 2 = 5875.
After knock-down of CG5302 (retired record) [DRSC22671] the results were infection score, replicate 1 = 1.28; infection score, replicate 2 = 2.62; cell count, replicate 1 = 6946; cell count, replicate 2 = 6685.
Hr39 [DRSC03346] showed infection score, replicate 1 = 5.05; infection score, replicate 2 = 9.09; cell count, replicate 1 = 6540; cell count, replicate 2 = 6205.
Hr39 [DRSC26006] gave infection score, replicate 2 = 8.21; cell count, replicate 1 = 581; cell count, replicate 2 = 6247.
For Polr3G [DRSC21511], the values are infection score, replicate 1 = 2.31; infection score, replicate 2 = 5.06; cell count, replicate 1 = 5769; cell count, replicate 2 = 6210.
For CNT1 + CG13742 [DRSC06413], the values are infection score, replicate 1 = 8.39; infection score, replicate 2 = 8.59; cell count, replicate 1 = 3717; cell count, replicate 2 = 5949.
CNT1 + CG13742 [DRSC28676] gave infection score, replicate 1 = 10; cell count, replicate 1 = 3718; cell count, replicate 2 = 360.
